The results in this text go back to US11160869B2 (priority 2019, dated 2021).

The nature of the data set: Purification with and without sulfitolysis: SEC-HPLC forms, yield and dimer recovery after Capto Q. On the procedure: Refolding in both processes was carried out at 4° C. The refolding solution used in both processes contained 1 mM reduced glutathione, 0.5 mM oxidized glutathione, 1M Arginine-HCl, 250 mM sucrose, 100 mM Tris pH 8.5 at 4° C., and 2 mM EDTA.

B1: IL-10 delivery construct: recombinant homodimeric fusion protein: N-terminal methionine, cholix386 domain, polyGlySer spacer, recombinant human IL-10 (protein)
chain: MVEEALNIFDECRSPCSLTPEPGKPIQSKLSIPSDVVLDEGVLYYSMTINDEQNDIKDEDKGESIITIGEFATVRATRHYVNQDAPFGVIHLDITTENGTKTYSYNRKEGEFAINWLVPIGEDSPASIKISVDELDQQRNIIEVPKLYSIDLDNQTLEQWKTQGNVSFSVTRPEHNIAISWPSVSYKAAQKEGSRHKRWAHWHTGLALCWLVPMDAIYNYITQQNCTLGDNWFGGSYETVAGTPKVITVKQGIEQKPVEQRIHFSKGNAMSALAAHRVCGVPLETLARSRKPRDLTDDLSCAYQAQNIVSLFVATRILFSHLDSVFTLNLDEQEPEVAERLSDLRRINENNPGMVTQVLTVARQIYNDYVTHHPGLTPEQTSAGAQAGGGGSGGGGSGGGGSPGQGTQSENSCTHFPGNLPNMLRDLRDAFSRVKTFFQMKDQLDNLLLKESLLEDFKGYLGCQALSEMIQFYLEEVMPQAENQDPDIKAHVNSLGENLKTLRLRLRRCHRFLPCENKSKAVEQVKNAFNKLQEKGIYKAMSEFDIFINYIEAYMTMKIRN
modifications: homodimer
With B1, the Dimer % runs as follows: (No Sulfitolysis of SIB (2x UF/DF at 4° C.), SEC-HPLC before AEX) 27%; (No Sulfitolysis of SIB (2x UF/DF for 66 h RT), SEC-HPLC before AEX) 22%; (Sulfitolysis of SIB (TFF-2 for 20 h at RT), SEC-HPLC after UF/DF, before AEX) 17%. Further, the “Dimer content in Capto Q Load” value turned out to be 25% (No Sulfitolysis of SIB (97 mL Capto Q)), 16.5% (Sulfitolysis of SIB (97 mL Capto Q)) and 20% (Sulfitolysis of SIB (average of 3)).
